Assay results reported in article PMC4171701.

Tested on: OC[C@H]1O[C@H](O[C@H]2[C@H](O)[C@@H](O)C(O)O[C@@H]2CO)[C@H](O)[C@@H](O)[C@@H]1O
Assay: purified protein
Conditions: pH 8.0; 37.0 °C

Substance: MtbMaK (Mycobacterium tuberculosis H37Rv)
- Km: 2490 µM
